The target of assay [1] is T1, Omicron BA.2.12.1 RBD (SARS-CoV-2, UniProt P0DTC2 333-528).
T1 construct: domain: RBD
Description: SPR.

For assay [2], the target named is T1, Omicron BA.2.12.1 RBD. Nature of the assay: SPR; BA.2.12.1 by 1:1 equilibrium analysis. In general terms: SPR reads the build-up and loss of mass on a sensor chip optically.

B1: Omi31 (antibody, V domains shown)
VH: EVQLVQSGAEVKKPGSSVKVSCKASGGTFSSYGISWVRQAPGLGLEWMGGVIPILSAKHYAQRFQGRVTITADKSTGTAYMELSSLRSEDTAVYYCARDILHHDDLWGRFYYDGMDVWGQGTTVTVSS
VL: QSVVTQPPSASGTPGQRVTISCSGSSSDIGSNTVNWYQQLPGTAPKLLIYTNNQRPSGVPDRFSGSKSGTSASLAITGLQSEDEADYFCAAWDESLNGRVFGGGTKLTVL
Consider B1, for which the “fold weaker binding against BA.2 RBD” value in the assay with Omicron BA.2.12.1 RBD [1] was about 1300 fold.

B2: Omi06 (antibody, V domains shown)
VH: EVQLLESGPGLVKPSETLSLTCTVSGGSISRYSWSWIRQPAGRGLEWIGRMYSSGGTNYNPSLESRVTMSLDTSKKQFSLKLSSVTAADTAVYYCAAASIDQVWGTYRDAFDIWGQGTMVTVSS
VL: AIRMTQSPSSLAASVGDRVTISCRAGQSISSFLHWYQQKVGKAPKLLIYDASSLQSGVPSRFSGSGSGTDFTLTISSLQPEDFAAYYCQQSYENPLTFGGGTKVDIK
On to B2, for which the “fold weaker binding against BA.2 RBD” value in the assay with Omicron BA.2.12.1 RBD [2] was 15 fold.

Source of the values: patent US20250154231A1 (RQBIO COVID, published 2025).
